Assay results as given in PMC6471621, “Evaluation of the Anti-Trypanosomal Activity of Vietnamese Essential Oils, with Emphasis on Curcuma longa L. and Its Components” (Molecules, 2019).

Columns and labels:
[1] = test system: WI38 human non-cancer fibroblast cell line; assay: Cytotoxicity assay (MTT) on WI38; format: cell-based; settings: pure compounds; SI = IC50 on mammalian cells/IC50 on protozoan parasites
Description: (§1) The human non-cancer fibroblast cell line WI38 (ATCC Number CCL-75 – Standards, UK) and macrophage-like murine cell line J774 (ECACC Number 91051511 – Public Health England, UK) were grown in DMEM and RPMI medium (Gibco-Thermo Fisher Scientific, Merelbeke, Belgium or Sigma-Aldrich, Bornem, Belgium), respectively, supplemented with 10% fetal bovine serum and penicillin-streptomycin (100 UI/mL) (Sigma-Aldrich, Bornem, Belgium).
(§2) The cytotoxicity assays were performed as described previously with concentrations ranging from 50 to 1.40 nL/mL (dilution of 1.67). The selectivity index (SI) values were calculated using the formula:SI = IC50 on mammalian cells/IC50 on protozoan parasites

[2] = test system: J774 macrophage-like murine cell line; assay: Cytotoxicity assay (MTT) on J774; format: cell-based; settings: pure compounds; SI = IC50 on mammalian cells/IC50 on protozoan parasites
Description: as §1, §2

Row | SMILES | SI (WI38) [1] | SI (J774) [2]
1 | CC(C)=CC(=O)CC(C)c1ccc(C)cc1 (centres unmarked) [ar-Turmerone] | 1.5 | 1.6
2 | C=C1C=CC(C(C)CCC=C(C)C)CC1 (stereo not drawn) [β-Sesquiphellandrene] | 1.9 | 2.1
3 | C=C1C=CC(C(C)CC(=O)C=C(C)C)CC1 (centres unmarked) [Curlone] | 31.7 | 18.2
4 | CC(C)=CCCC(C)c1ccc(C)cc1 (centres unmarked) [ar-Curcumene] | 1.7 | 1.8
